# Assay results from the supplement of paper PMC9931576.
# Human monoclonal antibodies against the spike receptor-binding domain (heavy:light variable regions). IC50 against pseudoviruses bearing the spike of naturally observed variants; lower = stronger; >10 µg/ml means not reached at the top dose. No active / inactive call. The stated detection limit is 0.0005 µg/ml; values near or below 0.001 µg/ml lie at the floor of the assay.
# B1: BD55-972 (protein)
# chain 1: QVQLVQSGAEVKKPGASVRISCKASGYSISNFAIHWVRQAPGQSLEWVGWINGVNGNRKYSEKFQGRVAITRDTSASTAYMDLSSLRLDDTAIYYCARDPTHPPQPPYYHAGSGQLDYWGQGTLVTVSS
# chain 2: DIQMTQSPSSVSASIGDRVTITCRASQPISTYLSWYQQTPGKAPKLLIYNASTLQSGVPSRFVGSGSGTDFALSIYGLQPEDFATYFCQQSFTNPRTFGQGTKVDIK
# B2: BD55-958 (protein)
# chain 1: QVQLHQWGAGLLKPSETLSRTCAVYGGSFSGFFWAWIRQSPEKGLEWIGEISDTGDTNYNPSLKSRLALSVDTFKNQFSLTLTSVTAADTSTYFCVRGPNRHCRAGSCNTYVYWSQGTLVTVSS
# chain 2: EIVLTQSPGTLSLSPGSTATLFCRASQAISGNYLAWFQQRPGQAPRLLIYDASSRATAVPDRFSGGGSGTDFTLTIKGLEPEDFAVYYCHQYGTLPITFGQGTKIEVK
# B3: BD55-606 (protein)
# chain 1: QVQLQQWGAGLLKPSETLSRTCAVYGGSFSGYYWTWIRQPPGKGLEWIGDIHHSGSTNYNPSLKSRVTMSVDTSKNQFSLELRSVSAADTAVYYCVRGFEGYCSGGRCYSYFDYWGQGTLVTVSS
# chain 2: EIVMTQSPATLSVSPGERATLSCRASQSVSSNLAWYQQKPGQAPRLLIYGASSRATGIPARFSGSGSGTEFTLTISSLQSGDFGVYYCQQYNNWPYTFGQGINLEIK
# B4: BD55-676 (protein)
# chain 1: QLQLQESGPGLVKPSETLSLTCTVSGGSISSTSYYWGWIRQPPGKGLECIGTMFHSGRTYYSPSLKSRVTISVDTSKNQFSLKLSSVTAADTAVYYCSTLQWLRGFFHYWGQGTLVTVSS
# chain 2: NFMLTQPHSVSESPGKTVTISCTRSSDSIASNYVQWYQQRPGSAPTTVIYEDNQRPSGVPDRFSGSIDSSSNSASLTISGLKTEDEADYYCQSYDSSNRFWVFGGGTKLTVL
# B5: BD55-987 (protein)
# chain 1: QVQLVQSGAEVKKPGSSVKVSCKASGDTFSRYAITWVRQAPGQGLDWMGRIIPRFGNRNYAQKFQDRVTFTAETSTSSVYMEMSGLRSDDTAVYYCATTPFFSDSGGHYCDFWGQGTLVTVSS
# chain 2: EIVLTQSPGTLSFSPGERATLSCRASQSVGGGYLAWYQQKPGQAPRLLIHGVSNRAPGIPDRFSGSGSGTDFTLTIDRLEPEDFAVYYCQQYSRSPRTFGQGTKLEIK
# B6: BD55-663 (protein)
# chain 1: QVQLVQSGAEVKKPGSSVKVSCKASGGTFSRYAISWVRQAPGQGLEWMGGIIPMFGTANYAQKFQGRVTITADESTSTAYMELSSLRSEDTAVYYCAREMITFGGVIVEKFGRYYYYYGMDVWGQGTTVTVSS
# chain 2: EIVLTQSPGTLSLSPGERATLSCRASQSVSSNYLAWYQQKPGQAPRLLIYGASSRASGIPDRFNGSGSGTDFTLTISRLEPEDFAVYYCQQYGSSARTFGQGTKVEIK
# Biological target: SARS-CoV-2 Omicron BA.1 spike pseudovirus
# Test: pseudovirus neutralization IC50; higher = weaker neutralization
# Method: (§1)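 Single-round VSV luciferase pseudovirus mixed with antibody dilutions for 1 h and put on Huh-7 cells for about a day; IC50 from the dose curve.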
row,Binder,pseudovirus neutralization IC50 [µg/mL]
1,B1,> 10
2,B2,> 10
3,B3,> 10
4,B4,> 10
5,B5,0.0122
6,B6,> 10

# Biological target: SARS-CoV-2 Omicron BA.2 spike pseudovirus
# Test: as above
# Method: as §1
row,Binder,pseudovirus neutralization IC50 [µg/mL]
1,B1,> 10
2,B2,> 10
3,B3,> 10
4,B4,> 10
5,B5,0.0123
6,B6,> 10

# Biological target: SARS-CoV-2 Omicron BA.2.75 spike pseudovirus
# Test: as above
# Method: as §1
row,Binder,pseudovirus neutralization IC50 [µg/mL]
1,B1,> 10
2,B2,> 10
3,B3,> 10
4,B4,> 10
5,B5,0.00728
6,B6,> 10

# Biological target: SARS-CoV-2 Omicron BA.5 spike pseudovirus
# Test: as above
# Method: as §1
row,Binder,pseudovirus neutralization IC50 [µg/mL]
1,B1,> 10
2,B2,> 10
3,B3,> 10
4,B4,> 10
5,B5,> 10
6,B6,> 10

# Biological target: SARS-CoV-2 Omicron BQ.1.1 spike pseudovirus
# Test: as above
# Method: as §1
row,Binder,pseudovirus neutralization IC50 [µg/mL]
1,B1,> 10
2,B2,> 10
3,B3,> 10
4,B4,> 10
5,B5,> 10
6,B6,> 10

# Biological target: SARS-CoV-2 Omicron XBB spike pseudovirus
# Test: as above
# Method: as §1
row,Binder,pseudovirus neutralization IC50 [µg/mL]
1,B1,> 10
2,B2,> 10
3,B3,> 10
4,B4,> 10
5,B5,> 10
6,B6,> 10

# Biological target: SARS-CoV-2 early D614G spike pseudovirus
# Test: as above
# Method: as §1
row,Binder,pseudovirus neutralization IC50 [µg/mL]
1,B1,0.013
2,B2,> 10
3,B3,0.142
4,B4,1.57
5,B5,0.00133
6,B6,> 10
